{"source": "patent US20190022211A1", "about": "(CELLTRION, published 2019)", "key": {"[1]": {"target": "purified rabies virus G protein (rabies virus)"}, "[2]": {"target": "G protein of rabies virus I-151 (Dog, India), on virus (rabies virus)", "assay": "cell-based or functional assay"}, "[3]": {"target": "G protein of rabies virus I-148 (Dog, India), on virus (rabies virus)", "assay": "cell-based or functional assay"}, "[4]": {"target": "G protein of rabies virus rv61 (Human (ex, dog), UK (ex, India)), on virus (rabies virus)", "assay": "cell-based or functional assay"}}, "note": "Where “and” joins values, the source holds several entries; their conditions need not be identical. Equal values may be shown once."}
{"binder": "antibody 1 (antibody, V domains shown) VH: VQLLQESGPGLAKPSETLSLICTVSGGSISRRRDYWGWIRQPPGRGLEWIGSFFHRGSTYYNPSLESRVSISVDPSKNQFSLHLSSVTVADTAVYYCARHPSTPFAEYLLLPDAFDSWGQGTLVTVSS VL: DIVMTQSPATLSVSPGERATLSCRASQSVRSSLAWYQQRPGQAPRLLISGASTRATDIPARLSGSGSGTEFTLTVSSLQSEDFAVYYCQQYSDWPLTFGGGTKVEIKR", "values": [{"measurement": "Kd", "setting": "[1]", "result": "3.73 nM and 4.54 nM and 5.36 nM"}, {"measurement": "koff", "setting": "[1]", "result": "0.000939 s⁻¹ and 0.00115 s⁻¹"}, {"measurement": "kon", "setting": "[1]", "result": "252000 M⁻¹ s⁻¹ and 214000 M⁻¹ s⁻¹"}, {"measurement": "neutralizing activity (RFFIT)", "setting": "[2]", "result": "0.74 IU/mL and 3680 IU/mg"}, {"measurement": "neutralizing activity (RFFIT)", "setting": "[3]", "result": 2600, "unit": "IU/mg"}, {"measurement": "neutralizing activity (RFFIT)", "setting": "[4]", "result": "1.7 IU/mL and 1740 IU/mg"}, {"measurement": "neutralizing activity (RFFIT), Titer", "setting": "[4]", "result": 200}]}
